Measured values reported in patent publication US10226048B2 (priority 2014, dated 2019).

Test: Oxidization ability against sodium thiosulfate
Conditions: basic solution (pH 9.3)

OO [HP, hydrogen peroxide]
STS oxidized by this oxidant (stoichiometry): less than 10%
